Measured values from several laboratories, pooled; numbers as filed in NIAID ChemDB.

Shared fields: growth or infection tests; species: Herpes simplex virus 1; endpoint: EC50

Rows are shuffled and stem from different studies. Blank or dashed fields: not listed here. ECn: concentration that inhibits the pathogen or its effect by n%.

| smiles | strain | cell line | result |
|---|---|---|---|
| CC(=O)OCCOCN1C(N)=CC(N)=NS1(=O)=O | F | E6SM | >400 µg/mL |
| Nc1ncnc2c1ncn2CC1(OCP(=O)(O)O)CC1 |  | HEPG2 2.2.18 | >30 µM |
| Nc1ccn([C@H]2C[C@H](CO)[C@@H](CO)O2)c(=O)n1 |  |  | 2.8 µg/mL |
| Cc1ccc(C2NC(=O)C3NC(=O)C(c4cc(O)cc(O)c4)NC(=O)C(NC(=O)C(N)Cc4ccc(O)cc4)Cc4c[nH]c5cc(ccc45)-c4cc3cc(c4O)Oc3ccc(cc3)CC(C(=O)NC(C(=O)O)c3ccc(O)c(O)c3)NC2=O)cc1Cl | KOS | VERO | 44 µg/mL |
| [N-]=[N+]=N[C@H]1C[C@H](CO)S[C@H]1n1cnc2c(Cl)ncnc21 |  |  | >100 µg/mL |
| Nc1nc2c(ncn2CC2(OCP(=O)(O)O)CC2)c(=O)[nH]1 |  | HepG2 2.2.15 | >30 µM |
| CC(=O)Nc1cn([C@H]2C[C@H](OC(C)=O)[C@@H](COC(C)=O)O2)c(=O)[nH]c1=O |  | GMK | >400 µg/mL |
| CC(C)c1ccc(-n2cc(-c3cn(C4CC(O)C(CO)O4)c(=O)[nH]c3=O)nn2)cc1 | TK- KOS ACVr |  | >50 µM |
| CC(C)c1cn([C@@H]2O[C@H](COP(=O)(O)O)[C@@H](O)[C@H]2O)c(=O)nc1N | F |  | >400 µg/mL |
| CC1=C[C@H](n2ccc(=O)[nH]c2=O)C[C@]1(C)CO |  |  | >100 µg/mL |
| Cc1ccn2c(C(SCCc3ccccc3)SCCc3ccccc3)cnc2c1 | VMW 1837 (TK+/TK-) | E6SM | >1000 µM |
| O=c1[nH]c(=O)n([C@H]2O[C@@H](CO)[C@H](O)[C@H]2O)cc1/C=C/Br |  |  | >100 µM |
| CC1=C[C@H](n2ccc(=O)[nH]c2=O)CC1(CO)CO |  |  | >100 µg/mL |
| O=C(NCc1ccc(Cl)cc1)c1c[nH]c2c(F)cc(CCCO)cc2c1=O | PAAS (R841S (III)) |  | 1.1 µM |
| [N-]=[N+]=N[C@H]1C[C@H](CO)SC1n1cnc2c(N)ncnc21 |  |  | >100 µg/mL |
| Nc1ncnc2c1ncn2C[C@H]1C[C@H]1[C@H](O)CO |  | VERO | >50 µM |
| c1cc(C23CC4CC(CC(C4)C2)C3)no1 | 1C | Chick embryo fibroblasts | 8.1 µg/mL |
| CC(=O)OCCOCN1C(=O)C=CN(COCCO)S1(=O)=O | KOS | E6SM | >400 µg/mL |
| Cc1cc2nc3c4ccccc4n(CCN(C)C)c3nc2cc1C | C42 | HL | 1.5 µM |
| CC1=C[C@H](n2ccc(N)nc2=O)C[C@]1(C)CO |  |  | >100 µg/mL |
| Nc1ncnc2c1ncn2[C@@H]1OCC(CO)=C1F |  |  | >100 µg/mL |
| Nc1ncnc2c1ncn2[C@H]1C[C@]12C[C@H]2CO |  | BSC-1 | 70 µM |
| O=C(O)Cc1ccc(-c2ccccn2)cc1 | F | VERO | 0.1 µM |
| Cc1cccn2c(C3SCCS3)cnc12 | VMW 1837 (TK+/TK-) | E6SM | >1000 µM |
| C[C@]1(Cn2cnc3c(=O)[nH]c(N)nc32)[C@H](COCP(=O)(O)O)C1(F)F | HF | VERO | >100 µM |
| Nc1nc2c(ncn2CCC(CO)CO)c(=O)[nH]1 |  |  | 0.04 µg/mL |
| CCc1cn([C@@H]2O[C@H](COP(=O)(O)O)[C@@H](O)[C@H]2O)c(=O)nc1N | McIntyre |  | >400 µg/mL |
| [N-]=[N+]=N[C@H]1C[C@H](CO)S[C@H]1n1cnc2c(=O)[nH]cnc21 |  |  | >100 µg/mL |
| O=c1[nH]c(=O)n(C2CC(O)C(CO)O2)cc1-c1ccc(Cl)s1 | KOS |  | 0.02 µM |
| O=c1ccn(C[C@H]2C[C@H]2[C@H](O)CO)c(=O)[nH]1 |  | VERO | >50 µM |
| CCCCCCc1cn([C@@H]2OC3COP(=O)(O)OC3[C@H]2O)c(=O)nc1N | KOS |  | >400 µg/mL |
| [N-]=[N+]=N[C@@H]1C[C@@H](CO)S[C@@H]1n1cnc2c(Cl)ncnc21 |  |  | >100 µg/mL |
| O=C1C=CN(COCCO)S(=O)(=O)N1COCCO | B206 (TK-) | E6SM | >400 µg/mL |
| [N-]=[N+]=N[C@@H]1C[C@@H](CO)S[C@H]1n1cnc2c(=O)[nH]cnc21 |  |  | >100 µg/mL |
| C[C@]1(CO)[C@H](Cn2cnc3c(=O)[nH]c(N)nc32)C1(F)F | HF | VERO | >100 µM |
| COC(=O)[C@H](C)NP(=O)(OC[C@@H]1C[C@]12C[C@@H]2n1cnc2c(N)ncnc21)Oc1ccccc1 |  | VERO | 20 µM |
| C/C(O)=C1\C(=N)N(COCCO)S(=O)(=O)N=C1N | B206 (TK-) | E6SM | >400 µg/mL |
| Nc1nc2c(ncn2COC(CO)CO)c(=O)[nH]1 | OST (TK-) |  | 44 µg/mL |
| C/C(=C\CCC(C)[C@H]1CC[C@@]2(C)C3=CCC4C(C)(C)[C@@H](O)CC[C@]4(C)C3=CC[C@]12C)CO |  | VERO | 68 µM |
| CCCCCCCCCCCCCCCCOCCCOP(=O)(O)CCCOCn1cnc2c(N)nc(N)nc21 |  | MRC-5 | 40.3 µM |
| Cc1cccn2c(C3OCCO3)cnc12 | VMW 1837 (TK+/TK-) | E6SM | >1000 µM |
| CCc1cn([C@@H]2OC3COP(=O)(O)OC3[C@H]2O)c(=O)nc1N | McIntyre |  | >400 µg/mL |
| O=c1[nH]c(=O)n([C@H]2C[C@H](O)[C@@H](O)O2)cc1C#Cc1ccc2c3cccc4cccc(c5cccc1c52)c43 | KOS | VERO | 0.048 µM |
| Nc1nc2c(ncn2COCCCP(=O)([O-])O)c(=O)[nH]1 |  | MRC-5 | 28 µM |
| Nc1nc(=S)n([C@@H]2O[C@H](CO)[C@@H](O)[C@@H]2O)cc1F | F |  | 0.02 µg/mL |
| C[C@@H]1CC[C@H]2C(C)(C)[C@H](O)CC[C@]2(C)C12Cc1c(O)cc3c(c1O2)COC3=O |  | VERO | >20 µg/mL |
| [N-]=[N+]=N[C@H]1C[C@H](CO)S[C@@H]1n1cnc2c(=O)[nH]cnc21 |  |  | >100 µg/mL |
| C=C[C@@](CO)(CCn1cnc2c(N)ncnc21)c1ccccc1 |  |  | >100 µg/mL |
| Nc1nc(Cl)c2ncn(CC3(OCP(=O)(O)O)CC3)c2n1 |  | HEPG2 2.2.21 | >30 µM |
| [N-]=[N+]=N[C@H]1C[C@H](CO)S[C@H]1n1ccc(=O)[nH]c1=O |  |  | >100 µg/mL |
| CCCCCc1cn([C@@H]2O[C@H](COP(=O)(O)O)[C@@H](O)[C@H]2O)c(=O)nc1N | McIntyre |  | >400 µg/mL |
| Nc1nc2c(ncn2CCC(CO)CO)c(=O)[nH]1 | SC16 | MRC-5 | 0.01 µg/mL |
| O=c1[nH]c(=O)n([C@@H]2O[C@H](CO)[C@@H](O)[C@@H]2O)cc1/C=C/Br | KOS | E6SM | 1 µM |
| Nc1nc2c(ncn2[C@H]2C=C[C@@H](CO)[C@H](O)C2)c(=O)[nH]1 | KOS (TK-) |  | 1.28 µg/mL |
| Cc1cn(C[C@H]2C[C@H]2[C@H](O)CO)c(=O)[nH]c1=O |  | VERO | >50 µM |
| CC/C=C\C/C=C\C/C=C\C/C=C\C/C=C\CCCC(=O)OC(CO[C@H]1O[C@H](CS(=O)(=O)O)[C@@H](O)[C@H](O)[C@H]1O)OC(=O)CCCCCCCCCCCCCCC |  | VERO | 42 µg/mL |
| CNc1cn([C@H]2C[C@H](O)[C@@H](CO)O2)c(=O)[nH]c1=O |  | GMK | 2.5 µg/mL |
| Cc1ccc2[nH]c3cc(O)cc(O)c3c(=O)c2c1 |  | VERO | 13 µM |
| CCNc1nc(N)nc2c1ncn2CC1(OCP(=O)(O)O)CC1 |  | HEPG2 2.2.20 | >30 µM |
| Nc1ncn([C@H]2CC[C@H](CO)O2)c(=O)n1 |  |  | >100 µM |
| Nc1nc(N)c2ncn(COCCCP(=O)(O)O)c2n1 |  | MRC-5 | >100 µM |
| Nc1nc2c(ncn2COC(CO)CO)c(=O)[nH]1 |  |  | 1 µM |
| O=C(O)CP(=O)(O)O |  | VERO | 50 µM |
| O=C(NCc1ccc(Cl)cc1)c1c[nH]c2c(F)cccc2c1=O | PFA2 (T566A A605V) |  | 1.5 µM |
| CC(=O)OCCOCN1C(C)=CC(N)=[N+](c2ccccc2)S1(=O)=O | KOS | E6SM | >400 µg/mL |
| Nc1nc2c(ncn2CCC(CO)CO)c(=O)[nH]1 | OST (TK-) |  | 231 µg/mL |

For reference, 10 entries again:

| smiles | strain | cell line | result |
|---|---|---|---|
| Nc1ncnc2c1ncn2[C@@H]1OCC(CO)=C1F |  |  | >100 µg/mL |
| Nc1ncn([C@H]2CC[C@H](CO)O2)c(=O)n1 |  |  | >100 µM |
| Nc1nc2c(ncn2CCC(CO)CO)c(=O)[nH]1 | SC16 | MRC-5 | 0.01 µg/mL |
| O=C(NCc1ccc(Cl)cc1)c1c[nH]c2c(F)cc(CCCO)cc2c1=O | PAAS (R841S (III)) |  | 1.1 µM |
| C/C(O)=C1\C(=N)N(COCCO)S(=O)(=O)N=C1N | B206 (TK-) | E6SM | >400 µg/mL |
| O=C(NCc1ccc(Cl)cc1)c1c[nH]c2c(F)cccc2c1=O | PFA2 (T566A A605V) |  | 1.5 µM |
| Nc1nc2c(ncn2CCC(CO)CO)c(=O)[nH]1 |  |  | 0.04 µg/mL |
| [N-]=[N+]=N[C@H]1C[C@H](CO)S[C@@H]1n1cnc2c(=O)[nH]cnc21 |  |  | >100 µg/mL |
| O=C1C=CN(COCCO)S(=O)(=O)N1COCCO | B206 (TK-) | E6SM | >400 µg/mL |
| Nc1nc2c(ncn2COCCCP(=O)([O-])O)c(=O)[nH]1 |  | MRC-5 | 28 µM |